This is an account of results in patent US20240116946A1 (Gilead Sciences, Inc., priority 2022, published 2024).

Where two headings read alike, the source gives them in different places. Some results are limits rather than exact numbers.

In one test the test system is SARS-CoV-2-NLuc. As to the kind of experiment: A549-hACE2 SARS-CoV2-NLuc 384-Well Assay. The conditions noted are these: read-out: MPro EC50, A549-hACE2 cells, 2 days. The procedure: Example B. A549-hACE2 SARS-CoV2-NLuc 384-Well Assay
A549-hACE2 cell line was maintained in Dulbecco's Minimum Essential Medium (DMEM) (Corning, New York, NY, Cat #15-018CM) supplemented with 10% fetal bovine serum (FBS) (Hyclone, Logan, UT, Cat #SH30071-03), 1× Penicillin-Streptomycin-L-Glutamine (Corning, New York, NY, Cat #30-009-CI) and 10 μg/mL blasticidin (Life Technologies Corporation, Carlsbad, CA, Cat #A11139-03). Cells were passaged 2 times per week to maintain sub-confluent densities and were used for experiments at passage 5-20. SARS Coronavirus 2 recombinant with NanoLuc (SARS-CoV-2-NLuc) was obtained from University of Texas Medical Branch (Galveston, TX). Viral replication was determined in A549-hACE2 cells in the following manner.
Compounds were prepared in 100% DMSO in 384-well polypropylene plates (Greiner, Monroe, NC, Cat #784201) with 8 compounds per plate in grouped replicates of 4 at 10 serially diluted concentrations (1:3). The serially diluted compounds were transferred to low dead volume Echo plates (Labcyte, Sunnyvale, CA, Cat #LP-0200).
The test compounds were spotted to 384-well assay plates (Greiner, Monroe, NC, Cat #781091) at 200 nL per well using an Echo acoustic dispenser (Labcyte, Sunnyvale, CA). A549-hACE2 cells were harvested and suspended in DMEM (supplemented with 2% FBS and 1× Penicillin-Streptomycin-L-Glutamine) and seeded to the pre-spotted assay plates at 10,000 cells per well in 30 μL. SARS-CoV2-NLuc virus was diluted in DMEM (supplemented with 2% FBS and X Penicillin-Streptomycin-L-Glutamine) at 350,000 Infectious Units (IU) per m and 10 μL per well was added to the assay plates containing cells and compounds, for MOI 0.35. The assay plates were incubated for 2 days at 37° C. and 5% CO2. At the end of incubation, Nano-Glo reagent (Promega, Madison, WI, Cat #N1150) was prepared. The assay plates and Nano-Glo reagent were equilibrated to room temperature for at least 30 minutes. 40 μL per well of Nano-Glo reagent was added and the plates were incubated at room temperature for 30 minutes before reading the luminescence signal on an EnVision multimode plate reader (Perkin Elmer, Waltham, MA). Remdesivir was used as positive control and DMSO was used as negative control. Values were normalized to the positive and negative controls (as 000 and 100% replication, respectively) and data was fitted using non-linear regression analysis by Gilead's dose response tool. The EC50 value for each compound was defined as the concentration reducing viral replication by 50%.

Test [1] addresses recombinant SARS-CoV-2 Main protease (Mpro) (Severe acute respiratory syndrome coronavirus 2 (2019-nCoV) (SARS-CoV-2), UniProt P0DTD1). As to the kind of experiment: Cov Mpro Biochemical IC50 Assay. The conditions noted are these: read-out: MPro IC50. The method, then:
Example A. Cov Mpro Biochemical IC50 Assay Description
This biochemical assay measured small molecule inhibitor IC50 values against recombinant SARS-CoV-2 Main protease (Mpro). Compounds from 100 μM to 5 nM in 3 fold dilutions were prepared and pre-incubated for 20 minutes while mixing at room temperature with 2× Mpro. The final Mpro concentration was 7.5 nM with the fluorogenic peptide substrate (DABCYL-KTSAVLQ/SGFRKME-EDANS) at its Km value of 40 μM in a reaction volume of 40 μM, Product formation was quantitated in kinetic mode every 2.5 minutes for 8 cycles by monitoring fluorescence at EX/EM wavelength of 340/460. Rates of reaction (slope with background subtracted) from inhibitor wells were normalized to DMSO wells and then curve fitted for IC50 using the PRISM algorithm: log(inhibitor) vs. normalized response—Variable slope The IC50 value for each compound was defined as the concentration reducing enzyme activity by 50%.

[2] abbreviates: recombinant SARS-CoV-2 Mpro, fluorogenic peptide substrate.
The mark [3] stands for this setting: recombinant SARS-CoV-2 Mpro 7.5 nM, fluorogenic peptide substrate 40 μM.

In general, EC50 refers to the concentration giving half of the maximal effect. The term IC50 denotes the midpoint of a concentration-inhibition curve. In the case of `N#Cc1ccc(-c2cccc(Cl)c2-c2ccc3c(=O)n(-c4cncc5ccccc45)c(=O)[nH]c3c2)cn1`, the EC50 with SARS-CoV-2-NLuc (SARS-CoV-2-NLuc) came out at 0.0517 µM. Besides, the IC50 in test [1] (setting [2]) came to 0.0291 µM.
For `O=C1COc2cc(-c3cccc(Cl)c3-c3ccc4c(=O)n(-c5cncc6ccccc56)c(=O)oc4c3)ccc2N1`, in that order: 0.0224 µM and 0.0249 µM.
Turning to `CCOc1cc(-c2cc(OC)c(F)cc2C#N)cc2[nH]c(=O)n(-c3cncc4ccccc34)c(=O)c12`, the 50% effective concentration (EC50) in the test on SARS-CoV-2-NLuc (SARS-CoV2-NLuc) stood at 0.02 µM. Besides, in test [1] (setting [3]), the IC50 worked out at 0.0151 µM.
Take `COc1ccc(Cl)c(-c2cc3[nH]c(=O)n(-c4cncc5cc(F)c(F)cc45)c(=O)c3s2)c1`: the EC50 in the test with SARS-CoV-2-NLuc (SARS-CoV2-NLuc) was found to be 0.048 µM. In addition, in test [1] (setting [3]), the IC50 is 0.0207 µM.
For `COc1ccc(Cl)c(-c2cc3[nH]c(=O)n(-c4cncc5cc(Cl)c(F)cc45)c(=O)c3s2)c1`, in that order: 0.218 µM and 0.0523 µM.
For the compound `COc1cc(-c2cc3[nH]c(=O)n(-c4cncc5[nH]c(=O)n(C)c45)c(=O)c3s2)c(Cl)cc1F`, the EC50 in the test with SARS-CoV-2-NLuc (SARS-CoV2-NLuc) was greater than 1 µM. Further, in test [1] (setting [3]), the IC50 was found to be 0.0157 µM.
